In series [1] the test system is Francisella tularensis MEP synthase S177E mutant, C-terminal His-tagged, Francisella tularensis subsp. holarctica LVS, Q2A4P9 1-385. The experiment in a line: SEC.
Series [2] concerns Francisella tularensis MEP synthase S177D mutant, C-terminal His-tagged, Francisella tularensis subsp. holarctica LVS, Q2A4P9 1-385. The experiment in a line: SEC.

The record followed here is paper PMC2788227, “Kinetic Characterization and Phosphoregulation of the Francisella tularensis 1-Deoxy-D-Xylulose 5-Phosphate Reductoisomerase (MEP Synthase)” (PLoS ONE, 2009).

“Francisella tularensis MEP synthase S177E mutant, C-terminal His-tagged” registered a stoichiometry N in series [1] of 2.

With “Francisella tularensis MEP synthase S177D mutant, C-terminal His-tagged”, in series [2], the stoichiometry N came to 2.
